Each compound was assayed on DosRST pathway, CDC1551 (hspX′::GFP) reporter strain (assay: microbe, parasite or virus in culture). Conditions: Mycobacterium tuberculosis, Table 4, fluorescence inhibition, doses 200 μM to 0.328 μM.
Format: cell-based

Point of comparison: O=C(Nc1ccc(Cl)cn1)Nc1ccno1 [MSU-39450, 1-(5-chloropyridin-2-yl)-3-(1,2-oxazol-5-yl)urea], EC50 1950 nM. Against it:
- O=C(Nc1ccno1)Nc1ccc(Cl)cc1Cl [HC106A] — within 1.5-fold, 2480 nM
- O=C(Nc1ccon1)Nc1ccc(Cl)cc1Cl [HC106C] — higher, > 200000 nM
- O=C(Nc1ccc(Cl)cc1)Nc1ccno1 [HC106F, 1-(4-chlorophenyl)-3-(1,2-oxazol-5-yl)urea] — within 1.5-fold, 1330 nM
- O=C(Nc1ccno1)Nc1ccno1 [MSU-39444, 1,3-bis(1,2-oxazol-5-yl)urea] — within 1.5-fold, 1700 nM
- O=C(Cc1ccc(Cl)cc1)Nc1ccno1 [MSU-39449] — 2.7-fold higher, 5200 nM
- CN(C(=O)Nc1ccno1)c1ccc(Cl)cc1 [MSU-39451, 1-(4-chlorophenyl)-1-methyl-3-(1,2-oxazol-5-yl)urea] — 2.1-fold higher, 4140 nM
- O=C(Nc1ccc(Cl)cc1)c1ccno1 [MSU-41422] — higher, > 200000 nM

Same assay, conditions: Mycobacterium tuberculosis, Table 5, fluorescence inhibition, doses 200 μM to 0.328 μM

Point of comparison: O=C(Nc1ccno1)NC1CCCC1 [MSU-41546, 1-cyclopentyl-3-(1,2-oxazol-5-yl)urea], EC50 2150 nM. Against it:
- O=C(Nc1ccno1)Nc1ccc(Cl)cc1Cl [HC106A] — within 1.5-fold, 2480 nM
- O=C(Nc1ccccc1)Nc1ccno1 [MSU-33189, 3-(1,2-oxazol-5-yl)-1-phenylurea] — 3.4-fold lower, 630 nM
- O=C(Nc1cccc(Cl)c1)Nc1ccno1 [MSU-39445, 1-(3-chlorophenyl)-3-(1,2-oxazol-5-yl)urea] — 2.9-fold lower, 750 nM
- COc1ccc(NC(=O)Nc2ccno2)cc1 [MSU-39447, 1-(4-methoxyphenyl)-3-(1,2-oxazol-5-yl)urea] — 3.5-fold lower, 610 nM
- O=C(Nc1ccc(Cl)nc1)Nc1ccno1 [MSU-39448, 1-(6-chloropyridin-3-yl)-3-(1,2-oxazol-5-yl)urea] — 1.5-fold lower, 1420 nM
- O=C(Nc1ccc(Cl)cn1)Nc1ccno1 [MSU-39450, 1-(5-chloropyridin-2-yl)-3-(1,2-oxazol-5-yl)urea] — within 1.5-fold, 1950 nM
- O=C(Nc1ccc(Cl)c(Cl)c1)Nc1ccno1 [MSU-39452, 1-(3,4-dichlorophenyl)-3-(1,2-oxazol-5-yl)urea] — within 1.5-fold, 2470 nM
- CC(C)(C)c1ccc(NC(=O)Nc2ccno2)cc1 [MSU-41442, 1-(4-tert-butylphenyl)-3-(1,2-oxazol-5-yl)urea] — within 1.5-fold, 2080 nM
- O=C(Nc1ccc(-c2ccccc2)cc1)Nc1ccno1 [MSU-41443, 1-{[1,1′-biphenyl]-4-yl}-3-(1,2-oxazol-5-yl)urea] — 5.2-fold higher, 11200 nM
- O=C(NCc1ccccc1)Nc1ccno1 [MSU-41462, 1-benzyl-3-(1,2-oxazol-5-yl)urea] — 1.9-fold lower, 1120 nM
- O=C(Nc1ccc(C(F)(F)F)cc1)Nc1ccno1 [MSU-41463, 3-(1,2-oxazol-5-yl)-1-[4-(trifluoromethyl)phenyl]urea] — within 1.5-fold, 1670 nM
- O=C(Nc1ccc(Br)cc1)Nc1ccno1 [MSU-41464, 1-(4-bromophenyl)-3-(1,2-oxazol-5-yl)urea] — 1.8-fold lower, 1200 nM
- COC(=O)c1ccc(NC(=O)Nc2ccno2)cc1 [MSU-41465, methyl 4-{[(1,2-oxazol-5-yl)carbamoyl]amino}benzoate] — 1.9-fold lower, 1160 nM
- CC(C)CNC(=O)Nc1ccno1 [MSU-41542, 3-(2-methylpropyl)-1-(1,2-oxazol-5-yl)urea] — 1.6-fold lower, 1340 nM
- O=C(Nc1ccc(COc2ccccc2)cc1)Nc1ccno1 [MSU-41545, 3-(1,2-oxazol-5-yl)-1-[4-(phenoxymethyl)phenyl]urea] — 2.2-fold higher, 4750 nM
- O=C(Nc1ccno1)NC1CCCCC1 [MSU-42002, 1-cyclohexyl-3-(1,2-oxazol-5-yl)urea] — 1.8-fold lower, 1210 nM
- O=C(Nc1cccc(Br)c1)Nc1ccno1 [MSU-42003, 1-(3-bromophenyl)-3-(1,2-oxazol-5-yl)urea] — within 1.5-fold, 1940 nM
- O=C(NCCc1ccccc1)Nc1ccno1 [MSU-42004, 3-(1,2-oxazol-5-yl)-1-(2-phenylethyl)urea] — within 1.5-fold, 2360 nM

Reference: patent US11617740B2, “Chemical inhibitors of Mycobacterium tuberculosis DosRST signaling and persistence” (priority 2017, dated 2023)
